Pooled drug test results. Numbers come from NIAID ChemDB, via PubChem.

Shared fields: target-level tests; species: Hepatitis C virus; target: NS3 protease

ICn is the concentration giving n% inhibition.

smiles | read-out | value
CCC[C@H](NC(=O)C1CC(Oc2cc(-c3ccccc3)nc3cc(OC)ccc23)CN1C(=O)[C@@H](NC(=O)OC(C)(C)C)C(C)C)C(=O)NCc1ccccc1 | Ki | 5.2 µM
CC[C@@H](C=O)NC(=O)[C@@H]1C[C@@H](NC(=O)N2CCOCC2)CN1C(=O)[C@@H](NC(=O)[C@@H](NC(=O)c1cnccn1)C(C)C)C(C)C | Ki | 1–100 µM
CC(=O)OCCC/C(=C1/SC(=S)N(CC(=O)O)C1=O)c1ccc(Br)cc1 | IC50 | 14.5 µM
CC[C@H](C)[C@H](NC(=O)[C@H](CC(=O)O)NC(=O)[C@@H](N)CC(=O)O)C(=O)N[C@H](C(=O)N1CCC[C@H]1C(=O)N[C@@H](CS)C(=O)O)C(C)C | Ki | 79 µM
CC(C)C[C@H](NC(=O)C1Cc2ccccc2N1)C(=O)N[C@@H](CC(F)F)C(=O)C(=O)O | IC50 | >100 µM
O=C(Nc1cccc(Cl)c1Cl)c1c(O)cc(O)c([N+](=O)[O-])c1O | IC50 | 10.1 µg/mL
N[C@H](C(=O)N[C@@H](CCC(=O)O)C(=O)N[C@@H](CC1CCCCC1)C(=O)N[C@@H](CS)C(=O)O)C(c1ccccc1)c1ccccc1 | IC50 | 30 µM
CC[C@H](NC(=O)[C@@H]1C[C@@H](OCc2ccc(Cl)c(Cl)c2)CN1C(=O)[C@@H](NC(=O)[C@@H](NC(=O)c1cnccn1)C(C)C)C(C)C)P(=O)(Oc1ccccc1)Oc1ccccc1 | Ki | <1 µM
CCCCCCCCCCCCCCCCC/C(=C1\SC(=S)N(CC(=O)O)C1=O)c1ccccc1 | IC50 | 6.4 µg/mL
CC(=O)N[C@@H](CC(=O)O)C(=O)N[C@H](CCC(=O)O)C(=O)N[C@H](C(=O)N[C@H](C(=O)N1C[C@H](OCc2ccc3ccccc3c2)C[C@@H]1C(=O)NC1(C(=O)O)CC1)C(C)C)C1CCCCC1 | IC50 | 0.014 µM
CC(C)C[C@H](NC(=O)[C@H](CCC(=O)O)N(C)C(=O)[C@@H](N)CC(=O)O)C(=O)N[C@@H](CCC(=O)O)C(=O)N[C@@H](CC1CCCCC1)C(=O)N[C@@H](CS)C(=O)O | IC50 | 1 µM
O=C(NCCOc1ccc(Oc2ccccc2)cc1)c1c(O)cc(O)c([N+](=O)[O-])c1O | IC50 | 76.9 µM
CC[C@H](NC(=O)[C@H](CCC(=O)O)NC(=O)[C@H](CCC(=O)O)NC(=O)[C@H](CCSC)NC(=O)[C@H](CCC(=O)O)NC(=O)[C@@H](N)CC(=O)O)C(=O)O | IC50 | 5.8 µM
O=C(Nc1ccc(Oc2ccccc2)cc1)c1c(O)cc(O)c([N+](=O)[O-])c1O | IC50 | 22.2 µM
CC(C)C[C@H](NC(=O)C1(C2CCCCC2)Cc2ccccc2N1)C(=O)N[C@@H](CC(F)F)C(=O)C(=O)O | IC50 | >100 µM
CCC[C@H](NC(=O)C1CC(Oc2cc(-c3ccccc3)nc3cc(OC)ccc23)CN1C(=O)[C@@H](NC(=O)OC(C)(C)C)C(C)C)C(=O)NS(=O)(=O)Cc1ccccc1 | Ki | 0.18 µM
CC[C@@H](C=O)NC(=O)[C@@H]1C[C@@H](OCc2ccccc2)CN1C(=O)[C@@H](NC(=O)c1c(-c2c(Cl)cccc2Cl)noc1C)C(C)C | Ki | >100 µM
CCC[C@H](NC(=O)C1CC(Oc2cc(-c3ccccc3)nc3cc(OC)ccc23)CN1C(=O)[C@@H](NC(=O)OC(C)(C)C)C(C)C)C(=O)N(C)S(=O)(=O)c1ccccc1 | Ki | 3.7 µM
CC[C@@H](C=O)NC(=O)[C@@H]1C[C@@H](NS(=O)(=O)c2ccccc2)CN1C(=O)[C@@H](NC(=O)[C@@H](NC(=O)c1cnccn1)C(C)C)C(C)C | Ki | 1–100 µM
CSCC[C@H](NC(=O)[C@H](CCC(=O)O)NC(=O)[C@@H](N)CC(=O)O)C(=O)N[C@@H](CCC(=O)O)C(=O)N[C@@H](CCC(=O)O)C(=O)N[C@@H](CO)C(=O)O | IC50 | 41 µM
CC[C@@H](C=O)NC(=O)[C@@H]1C[C@@H](OCc2ccccc2)CN1C(=O)[C@@H](NC(=O)c1cn(Cc2ccccc2)c2ccccc12)C(C)C | Ki | 1–100 µM
O=C(NCCOc1ccc(Oc2ccccc2)cc1)c1c(O)cc(O)c([N+](=O)[O-])c1O | IC50 | 32.8 µg/mL
C=CC1CC1(NC(=O)C1CC(Oc2cc(-c3ccccc3)nc3cc(OC)ccc23)CN1C(=O)[C@@H](NC(=O)OC(C)(C)C)C(C)C)C(=O)NS(=O)(=O)c1ccccc1 | Ki | 0.00076 µM
CC[C@H](NC(=O)[C@@H]1C[C@@H](OCc2ccccc2)CN1C(=O)[C@@H](NC(=O)[C@@H](NC(=O)c1cnccn1)C(C)C)C(C)C)P(=O)(Oc1ccccc1)Oc1ccccc1 | Ki | 1–100 µM
CCC[C@H](NC(=O)[C@H](CC1CCCCC1)NC(=O)[C@@H](NC(=O)[C@@H](NC(=O)CCC(=O)O)C1CCCCC1)C(C)CC)C(=O)NS(=O)(=O)C(C)C | Ki | 9.7 µM
CSCC[C@H](NC(=O)[C@H](CCC(=O)O)NC(=O)[C@@H](N)CC(=O)O)C(=O)N[C@@H](CCC(=O)O)C(=O)N[C@@H](CC1CCCCC1)C(=O)N[C@@H](CS)C(=O)O | IC50 | 0.3 µM
C=CC1CC1(NC(=O)C1CC(Oc2cc(-c3ccccc3)nc3cc(OC)ccc23)CN1C(=O)[C@@H](NC(=O)OC(C)(C)C)C(C)C)C(=O)NS(=O)(=O)Cc1ccccc1 | Ki | 0.018 µM
C=CN(CC(=O)O)C(=O)[C@H](CCC(=O)O)NC(=O)[C@H](CCC(=O)O)NC(=O)[C@H](CCSC)NC(=O)[C@H](CCC(=O)O)NC(=O)[C@@H](N)CC(=O)O | IC50 | 38 µM
COc1ccc2c(OC3CC(C(=O)NC4(C(=O)O)CC4)N(C(=O)[C@@H](NC(=O)OC(C)(C)C)C(C)C)C3)cc(-c3ccccc3)nc2c1 | Ki | 0.32 µM
O=C1C=C2C(=CCOC2O)O1 | IC50 | 17.4 µM

For reference, 3 entries again:

smiles,read-out,value
N[C@H](C(=O)N[C@@H](CCC(=O)O)C(=O)N[C@@H](CC1CCCCC1)C(=O)N[C@@H](CS)C(=O)O)C(c1ccccc1)c1ccccc1,IC50,30 µM
CCC[C@H](NC(=O)C1CC(Oc2cc(-c3ccccc3)nc3cc(OC)ccc23)CN1C(=O)[C@@H](NC(=O)OC(C)(C)C)C(C)C)C(=O)NCc1ccccc1,Ki,5.2 µM
O=C(Nc1ccc(Oc2ccccc2)cc1)c1c(O)cc(O)c([N+](=O)[O-])c1O,IC50,22.2 µM

Rows are shuffled and stem from different studies. a–b is a range or a potency band.